Literature values as cited in patent US20160374967A1, “ORGANIC THIOPHOSPHATE ANTIRETROVIRAL AGENTS” (The Government of the U.S.A., as Represented by the …, priority 2006, published 2016).
Where two headings read alike, the source gives them in different places.

Conditions: mice, cited from earlier work

## CNCCCNCCSP(=O)(O)O
i.p.
  maximally tolerated dose (MTD): 893 mg/kg BW
p.o.
  maximally tolerated dose (MTD): 1488 mg/kg BW
